Broadly, the IC50 is the concentration at which inhibition is half-maximal. For orientation: IC90 means the concentration needed for an effect of 90%. A lower IC90 goes with greater potency.

For data set [1], the system named is P. falciparum mature gametocytes (male gametogenesis). The experiment in a line: Exflagellation inhibition assay. In kind it is cell-based, Plasmodium falciparum. The following applies: TLCK 30 µM, positive control.
Data set [2] relates to P. falciparum CQ-resistant strain Dd2. Description: Malstat assay, CQ-resistant Dd2 strain. To be noted: for SI (ratio of CC50 and IC50): CC50 Nalm-6 / IC50 Dd2; for antiplasmodial activity against Dd2 compared to 3D7 (in words): Dd2, 72 h.
The subject of data set [3] is P. falciparum CQ-sensitive strain 3D7. The experiment in a line: Malstat assay, CQ-sensitive 3D7 strain. The following applies: for antiplasmodial activity against 3D7 (in words): 3D7, 72 h; for SI (ratio of CC50 and IC50): CC50 Nalm-6 / IC50 3D7; for IC50 / IC90: CQ-sensitive 3D7, ring stage cultures, 72 h.
In data set [4] the test system is P. falciparum gametocyte-producing strain NF54 gametocytes. The experiment in a line: Gametocyte toxicity assay. The class given is cell-based, Plasmodium falciparum. The following applies: epoxomicin 60 nM, positive control.
Setting [5] is: CQ-resistant Dd2, ring stage cultures, 72 h.

On to “Tosyl-L-lysyl-chloromethane hydrochloride”, for which the “reduction of the numbers of exflagellation centers” value in data set [1] is reported as 96%.
Take `c1ccc([As]23(OCCO2)OCCO3)cc1`: in data set [2], the “SI (ratio of CC50 and IC50)” value is listed as over 3; the “antiplasmodial activity against Dd2 compared to 3D7 (in words)” value was “reduced antiplasmodial activities”. This molecule also showed an IC50 in data set [2] (setting [5]) of 34.9 µM. Moreover, in data set [3], the “antiplasmodial activity against 3D7 (in words)” value is listed as “lower micromolar ranges”; the “SI (ratio of CC50 and IC50)” value is listed as over 13; the IC50 was found to be 7.64 µM; the IC90 was determined as 68.8 µM.
Regarding `O=[As](O)(O)c1ccccc1O`, in data set [2], the “SI (ratio of CC50 and IC50)” value is recorded as over 12; the “antiplasmodial activity against Dd2 compared to 3D7 (in words)” value is reported as “maintained their inhibitory activities”. In data set [2] (setting [5]), this molecule came in with an IC50 of 8.27 µM and an IC90 of 74.4 µM. In addition, in data set [3], the “antiplasmodial activity against 3D7 (in words)” value is on record as “lower micromolar ranges”; the “SI (ratio of CC50 and IC50)” value is over 13; the IC50 was found to be 7.55 µM; the IC90 turned out to be 68 µM.
Regarding epoxomicin, the “effect on gametocytes (in words)” value in data set [4] is “complete elimination of gametocytes”.
In the case of `O=C(O)c1cccc2c1[As](=O)(O)OC2=O`, in data set [3], the “antiplasmodial activity against 3D7 (in words)” value was “inactive”, the IC50 is over 200 µM and the IC90 was over 200 µM.
As to `CC(C)(C)c1cc2c(c(C(C)(C)C)c1)[As](=O)(O)OC2=O`, in data set [3], the “antiplasmodial activity against 3D7 (in words)” value is “higher micromolar ranges” and the IC50 stood at 45.6 µM.
As for `CC(=O)O[C@@H](C)C(=O)Nc1ccccc1[As](=O)(O)O`, the “antiplasmodial activity against 3D7 (in words)” value in data set [3] is “inactive”.
